From US20070049564A1 (Wyeth, priority 2005, published 2007)

Tests used:
Test in all cases: MIC, broth microdilution
Salmonella spp. GC 235 = test system: Salmonella spp. GC 235
S. cholerasius GC 1355 = test system: S. cholerasius GC 1355
Salmonella spp. GC 566 = test system: Salmonella spp. GC 566

| Structure (SMILES) | MINIMAL INHIBITORY CONCENTRATION MIC (Salmonella spp. GC 235; Human Serum) | MINIMAL INHIBITORY CONCENTRATION MIC (Salmonella spp. GC 235; Mouse Serum) | MINIMAL INHIBITORY CONCENTRATION MIC (Salmonella spp. GC 235; Water) | MINIMAL INHIBITORY CONCENTRATION MIC (S. cholerasius GC 1355; Human Serum) | MINIMAL INHIBITORY CONCENTRATION MIC (S. cholerasius GC 1355; Mouse Serum) | MINIMAL INHIBITORY CONCENTRATION MIC (S. cholerasius GC 1355; Water) | MINIMAL INHIBITORY CONCENTRATION MIC (Salmonella spp. GC 566; Human Serum) | MINIMAL INHIBITORY CONCENTRATION MIC (Salmonella spp. GC 566; Mouse Serum) | MINIMAL INHIBITORY CONCENTRATION MIC (Salmonella spp. GC 566; Water) |
| --- | --- | --- | --- | --- | --- | --- | --- | --- | --- |
| CN(C)c1cc(NC(=O)CN(C(=O)OCOC(=O)C2CCCCC2)C(C)(C)C)c(O)c2c1C[C@H]1C[C@H]3[C@H](N(C)C)C(O)=C(C(N)=O)C(=O)[C@@]3(O)C(O)=C1C2=O [Example 50, ({[(2-{[(5aR,6aS,7S,10aS)-9-(aminocarbonyl)-4,7-bis(dimethylamino)-1,8,10a,11-tetrahydroxy-10,12-dioxo-5,5a,6,6a,7,10,10a,12-octahydrotetracen-2-yl]amino}-2-oxoethyl)(tert-butyl)amino]carbonyl}oxy)methyl cyclohexanecarboxylate] | 32 UG/ML | 2 UG/ML | >64 UG/ML | 64 UG/ML | 4 UG/ML | >64 UG/ML | 32 UG/ML | 4 UG/ML | >64 UG/ML |
| Cc1cc(C)cc(C(=O)OCOC(=O)N(CC(=O)Nc2cc(N(C)C)c3c(c2O)C(=O)C2=C(O)[C@]4(O)C(=O)C(C(N)=O)=C(O)[C@@H](N(C)C)[C@@H]4C[C@@H]2C3)C(C)(C)C)c1 [Example 51] | 64 UG/ML | 2 UG/ML | >64 UG/ML | >64 UG/ML | 8 UG/ML | >64 UG/ML | 64 UG/ML | 4 UG/ML | >64 UG/ML |
| CN(C)c1cc(NC(=O)CN(C(=O)OCOC(=O)c2ccc(F)cc2)C(C)(C)C)c(O)c2c1C[C@H]1C[C@H]3[C@H](N(C)C)C(O)=C(C(N)=O)C(=O)[C@@]3(O)C(O)=C1C2=O [Example 52, ({[(2-{[(5aR,6aS,7S,10aS)-9-(aminocarbonyl)-4,7-bis(dimethylamino)-1,8,10a,11-tetrahydroxy-10,12-dioxo-5,5a,6,6a,7,10,10a,12-octahydrotetracen-2-yl]amino}-2-oxoethyl)(tert-butyl)amino]carbonyl}oxy)methyl 4-fluorobenzoate] | 16 UG/ML | 1 UG/ML | 16 UG/ML | >64 UG/ML | 4 UG/ML | >64 UG/ML | 32 UG/ML | 2 UG/ML | 64 UG/ML |
| CC(C)CC(=O)OCOC(=O)N(CC(=O)Nc1cc(N(C)C)c2c(c1O)C(=O)C1=C(O)[C@]3(O)C(=O)C(C(N)=O)=C(O)[C@@H](N(C)C)[C@@H]3C[C@@H]1C2)C(C)(C)C [Example 53, ({[(2-{[(5aR,6aS,7S,10aS)-9-(aminocarbonyl)-4,7-bis(dimethylamino)-1,8,10a,11-tetrahydroxy-10,12-dioxo-5,5a,6,6a,7,10,10a,12-octahydrotetracen-2-yl]amino}-2-oxoethyl)(tert-butyl)amino]carbonyl}oxy)methyl 3-methylbutanoate] | 64 UG/ML | 2 UG/ML | 64 UG/ML | 64 UG/ML | 8 UG/ML | >64 UG/ML | 32 UG/ML | 2 UG/ML | >64 UG/ML |
| CCCCOC(=O)N(CC(=O)Nc1cc(N(C)C)c2c(c1O)C(=O)C1=C(O)[C@]3(O)C(=O)C(C(N)=O)=C(O)[C@@H](N(C)C)[C@@H]3C[C@@H]1C2)C(C)(C)C [Example 58, butyl 2-{[(5aR,6aS,7S,10aS)-9-(aminocarbonyl)-4,7-bis(dimethylamino)-1,8,10a,11-tetrahydroxy-10,12-dioxo-5,5a,6,6a,7,10,10a,12-octahydrotetracen-2-yl]amino}-2-oxoethyl(tert-butyl)carbamate] | >64 UG/ML | >64 UG/ML | >64 UG/ML | >64 UG/ML | >64 UG/ML | >64 UG/ML | >64 UG/ML | >64 UG/ML | >64 UG/ML |
| CC(C)COC(=O)N(CC(=O)Nc1cc(N(C)C)c2c(c1O)C(=O)C1=C(O)[C@]3(O)C(=O)C(C(N)=O)=C(O)[C@@H](N(C)C)[C@@H]3C[C@@H]1C2)C(C)(C)C [Example 59, isobutyl 2-{[(5aR,6aS,7S,10aS)-9-(aminocarbonyl)-4,7-bis(dimethylamino)-1,8,10a,11-tetrahydroxy-10,12-dioxo-5,5a,6,6a,7,10,10a,12-octahydrotetracen-2-yl]amino}-2-oxoethyl(tert-butyl)carbamate] | >64 UG/ML | >64 UG/ML | >64 UG/ML | >64 UG/ML | >64 UG/ML | >64 UG/ML | >64 UG/ML | >64 UG/ML | >64 UG/ML |
